From the supplement of paper PMC12637763
Positions count from the first letter of the chain named. This is one part of the list. Env chains of viruses from a treatment-interruption trial, translated from the printed DNA. IC50 / IC80 of two broadly neutralizing antibodies; lower = more sensitive virus; >50 µg/ml means not reached and <0.001 µg/ml is below the lowest dose. No active / inactive call.

B1: HIV-1 Env, rebound clone, placebo arm (protein)
chain: MKVKGIRKNYQHLWRWGTMLLGMLMICSAADKLWVTVYYGVPVWKDATTTLFCASDAKAYDTEVHNVWATHACVPTDPDPQEVVLNVTENFNMWKNDMVGQMHEDIISLWDQSLKPCVKLTPLCVTLHCTNATSKNTTGAKNTTSTTNTTGGIEGKIKQEMKNCSFNVTTDIKDKMQRQYALFYKLDIVPIDNNDSYRLISCNTSVITQACPKVSFEPIPIHYCAPAGFAILKCNDKKFNGKGTCNNVSTVQCTHGIRPVVSTQLLLNGSLAEEDVVIRSDNFSDNAKTIIVQLNETVKINCTRPGNNTRKSITMGPGRAFYGTEDIIGDIRKAHCNISREGWNNTLKRVAEKLREKFENRTIVFNHSSGGDPEIVMHSFNCGGEFFYCNTTPLFGSTWNSTWNGNDTTESNSSTITLQCRIKQIINMWQEVGKAMYAPPIKGNIICSSNITGLLLTRDGGKTNETNTTTEIFRPGGGDMRNNWRSELYKYKVVQIEPLGVAPTKAKRRVVQREKRAVTLGAMFLGFLGAAGSTMGAASMMLTVQARQLLSGIVQQQNNLLRAIEAQQHLLQLTVWGIKQLQARVLAVERYLKDQQLLGIWGCSGKLICPTAVPWNASWSNKSLDIIWNNMTWMQWEKEISNYTGLIYNLIEESQNQQEKNEQELLELDKWDSLWNWFSITKWLWYIKIFIMIVGGLIGLRIIFAVLSIVNRVRQGYSPLSLQTLLPAPRGPDRPEGIEEEGGERERDRSGRLVTGLLELIWEDLRSLCLFSYHRLRDLLLITARTVGLLGSRGWEILKYLWNLLQYWSQELKSSAISLFNATAITVAEGTDRVIEVVLRVFRAIRNIPRRIRQGFERALQ
B2: HIV-1 Env, rebound clone, placebo arm (protein)
chain: B1 chain with S679N
B3: HIV-1 Env, rebound clone, placebo arm (protein)
chain: MRAKGTKKSWQNLWWRWGTMLLGMLMICNAVEQLWVTVYYGVPVWKEANTTLFCASDAKAYDTEVHNVWATHACVPTDPNPQEVFLENVTENFNMWKNNMVEQMHEDIISLWDQSLKPCVKLTPLCVTLNCTDLNCTSISNSSSTSNSSAKCNISNSEGEEEIKNIKNCTFNVTTSIKDKIQKEYALFYRLDIVPIDGSNDSYRLISCNTSVITQACPKVNFEPIPIHYCTPAGFAILKCNDKKFNGTGPCKNVSTVQCTHGIRPVVSTQLLLNGSLAEEEVVIRSENFTDNAKTIIVQLNESVEINCTRPSNNTRKSITIGPGRAFYATGEIIGDIRQAHCNISKAKWRNSLKLVVSKLREHENKTIIFKQSSGGDPEIVMHSFICGGEFFYCNTTQLFNSTWTLNDTNFENSTNGNETITLPCRIKQIINMWQEVGKAMYAPPIRGQIRCSSNITGLLLARDGGSNNTNNETFRPEGGNMRDNWRSELYKYKVVRIEPLGVAPTRARRRVVQREKRAVGAIGAMFLGFLGAAGSTMGAASITLTVQARLLLSGIVQQQNNLLRAIEAQQHLLQLTVWGIKQLQARVLAVERYLKDQQLLGIWGCSGRLICTTNVPWNNSWSNKNYSQIWDNMTWMEWEREIDNYTGLIYTLIEQSQNQQEKNEQELLELDKWASLWNWFSITNWLWYIRIFIMIVGGLIGLRIVFAIFSLVNRVRQGYSPLSFQTRLPTQRGPDRPEETEEEGGEQGKDRSIRLVDGFLALIWDDLRSLCLFSYHRLRDLLLIAARTVEILGRGGWELLKYWKNLLQYWSQELKKSAIDLYNTIAIAVAEGTDRVIEAIQRICRAILHIPRRIRQGLERGLL
B4: HIV-1 Env, rebound clone, placebo arm (protein)
chain: B3 chain with T422A
B5: HIV-1 Env, rebound clone, placebo arm (protein)
chain: MRVKGIRKNCQRLWRWGTMLLGLLMICSATEKLWVTVYYGVPVWKEANTTLFCASNAKAYDTEAHNVWATHACVPTDPNPQELDLKNVTENFNMWKNNMVEQMHEDIISLWDQSLKPCVKLTPLCVTLNCTDEVNLRVNSSNSNSSINSNSSISNSSIEEKGEIKNCSFNITTSIRDKVTKEYALFYRLDVVSIKDDNPNNTSYRLINCNTSVITQACPKVSFEPIPIHYCAPAGFAILKCKDKEFNGSGPCQNVSTVQCTHGIKPVVSTQLLLNGSLAEGEVVIRSENFSDNAKTIIVQLSRPVVINCTRPNNNTRKSIHIAPGRTFYATGDIIGDIRQAHCNISKRDWNKTLEEVKGKLEKQYNKTIFFNQSSGGDPEIVMHTFNCAGEFFYCNTTNLFNNNITINATDTNATDTNATITLPCKIKQIINLWQEVGKAMYAPPIKGQIRCLSNITGLLLTRDGGINENGTNDTFRPGGGDMRDNWRSELYRYKVVKIEPLGIAPTKAKRRVVQREKRAVGIGAMFLGILGAAGSTMGAASITLTVQARLLLSGIVQQQNNLLRAIEAQQHLLQLTVWGIKQLQARVLAVERYLKDQQLLGIWGCSGKLICTTSVPWNSSWSNRSLDYIWNNMTWMQWEREIDNYTGRIYTLIEEAQHQQEENELELLKLDEWSNLWNWFDILKWLWYIKIFIMIVGGLIGLRIVFAVISIVNRVRKGYSPLSFQTHFPAPRGPDRPGGIEEEGGDRDRDRSTRLVDGFLALVWDDLRSLILFLYHHLRDLLLIITRIVGLLGRRGWEILKYWWNLLQYWSRELKLSAISLYNATAIAVAEGTDRVIEVVQRIFRGVLHVPRRIRQGLERILV
B6: HIV-1 Env, rebound clone, antibody arm (protein)
chain: MRVKGIRRNYQHLWKWGIMLLGMLMICSAVDNLWVTVYYGVPVWKEATTTLFCASDAKSYDTEAHNVWATHACVPTDPNPQEVKLENVTENFNMWKNNMVEQMHEDIISLWDQSLKPCVRLTPLCVTLNCNDVNSTRTVNTTMNSTTMSSEVDKGEIKNCSFNITTGMGIKNEKEYALFYKLDVVQIDNTSYRLISCNTSVVTQACPKISFEPIPIHYCAPAGFAILKCNDKKFNGTGPCKNVSTVQCTHGIRPVISTQLLLNGSLAEEEVIIRSENITDNAKTIIVQLNETVKINCTRPHNNTRKGIHMGPGKAFFTTGNVIGDIRQAHCNISGAEWKNTLKMVAKKLGDQFKNKTITFSASSGGDPEIEKHTFNCGGEFFYCDTTKLFNSTWNETTWNENRENENDTDITIQCRIKQIINMWQEVGKAIYAPPIEGHIRCSSNITGLLLTRDGGINNNQSNTTEVFRPQGGDMKNNWRSELYKYKVVKIEPLGVAPTKAKRRVVQREKRAIVGLGAVFVGFLGAAGSTMGAASLTLTVQARQLLSGIVQQQSNLLRAIEAQQHLLQLTVWGIKQLQARILAVERYLTDQQLLGIWGCSGKLICNTAVPWNASWSNKSLDTIWENMTWMEWDREISNYTSLIYSLIEESQNQQEKNEQELLALDKWANLWSWFNISNWLWYIRIFIMIVGGLIGLRIVFAVLSIVNRVRQGYSPLSFQTHLPAQRGPDRPAGIGEEGGERDKDTSTPLVAGFLAILWVDLRSLCLFSYHRLRDLLLIVARIVELLGRRGWEILKYWWTLLQYWSQELKTSAVSLLNTTAIAVAEGTDRVIEAVQRACRAILHIPRRIRQGAERILV

Biological target: antibody 10-1074
Assay: neutralization IC50; higher = virus less sensitive to the antibody
Protocol: (§1)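 Pseudovirus bearing the Env chain mixed with antibody, from 50 µg/ml in fivefold dilutions, on TZM-bl reporter cells, in duplicate.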

Binder	neutralization IC50 [µg/mL]
B1	6.12
B2	4.64
B3	0.066
B4	0.043
B5	0.091
B6	0.434

Biological target: antibody 3BNC117
Assay: as above
Protocol: as §1

Binder	neutralization IC50 [µg/mL]
B1	0.172
B2	0.223
B3	0.233
B4	0.131
B5	0.081
B6	1.03

Biological target: antibody 10-1074
Assay: neutralization IC80; higher = virus less sensitive to the antibody
Protocol: as §1

Binder	neutralization IC80 [µg/mL]
B1	> 50
B2	29.3
B3	0.264
B4	0.234
B5	0.51
B6	0.822

Biological target: antibody 3BNC117
Assay: as above
Protocol: as §1

Binder	neutralization IC80 [µg/mL]
B1	0.808
B2	0.755
B3	1.39
B4	1.74
B5	0.285
B6	0.154
